This note sets out measurements from ChEMBL document CHEMBL1134822, “Trifluoromethyl-containing 3-alkoxymethyl- and 3-aryloxymethyl-2-pyridinones are potent inhibitors of HIV-1 non-nucleoside reverse transcriptase” (Bioorg Med Chem Lett, 2001).

Usually IC90 stands for the concentration needed for an effect of 90%. Read a low IC90 as greater potency.

The test system of the test is HIV-1 reverse transcriptase (Human immunodeficiency virus 1). In words: Compound was evaluated for its ability to inhibit the mutant K103N NNRTI HIV-1 enzyme.

In the case of `CCc1cc(NCc2nc3c(Cl)ccc(Cl)c3o2)c(O)nc1C` [L-697661], the 90% effect level (IC90) was put at 800 nM.
Next, `CCCOC(C#CC1CC1)(c1cc(CC)c(C)nc1O)C(F)(F)F` (configuration not stated): 144 nM.
